A mixed list of measured activities; the numbers were collected in NIAID ChemDB.

Shared fields: tests in culture; species: Mycobacterium tuberculosis

Percent inhibition refers to the dose given; in toxicity tests it is the harm to the cells.

compound	strain or isolate	method	read-out	tested at	value
CCOc1ccc(/C=N/NC(=O)c2cccc3ccccc23)cc1OCC	H37Rv	BACTEC	inhibition	12.5 µg/mL	23%
CCOC(=O)c1ccc2c(c1)nc(-c1ccc(O)c(OC)c1)n2CCN1CCCC1=O	H37Rv	resazurin / fluorescence	MIC	-	>100 µM
O=C1CC(c2ccccc2)Oc2ccc(Br)cc21	-	-	EC50	-	>12.5 µg/mL
NCC[C@H](O)C(=O)N[C@@H]1C[C@H](N)[C@@H](O[C@H]2O[C@H](CN)[C@@H](O)[C@H](O)[C@H]2O)[C@H](O)[C@H]1O[C@H]1O[C@H](CO)[C@@H](O)[C@H](N)[C@H]1O	H37Ra	-	Mean MIC	-	0.74 µg/mL
O=C(/C=C/c1ccccn1)c1ccccn1	H37Rv	-	EC50	-	>12.5 µg/mL
C/C(=N\NC(=O)c1cccnc1)c1cccc(/C(C)=N/NC(=O)c2cccnc2)n1	ETA-R	-	MIC	-	>12.5 µg/mL
CC1COc2c(N3CCN(C)CC3)c(F)cc3c(=O)c(C(=O)O)cn1c23	001-005 (DRUG-SUS)	-	MBC	-	4 µg/mL
CC(=O)Oc1ccc(/C=N/NC(=O)c2ccccc2)cc1	-	-	MIC	-	10 µg/mL
CCOC(=O)c1ccc2c(c1)nc(-c1ccc(N3CCOCC3)cc1)n2CCN1CCCOC1	H37Rv	resazurin / fluorescence	EC90	-	>100 µM
CO[C@H]1/C=C/O[C@@]2(C)Oc3c(C)c(O)c4c(O)c(c5c(c4c3C2=O)NC2(CCN(CC(C)C)CC2)N=5)=NC(=O)/C(C)=C\C=C\[C@H](C)[C@H](O)[C@@H](C)[C@@H](O)[C@@H](C)[C@H](OC(C)=O)[C@@H]1C	29 (rifampicin-resistant)	-	MIC	-	>2 µg/mL
C[C@@H]1CN(c2c(F)c(N)c3c(=O)c(C(=O)O)cn(C4CC4)c3c2F)C[C@H](C)N1	ATCC35838	-	MBC	-	0.6 µg/mL
COc1ccccc1CCNCCNC12CC3CC(CC(C3)C1)C2	-	-	MIC	-	25 µM
O=C(NN=C1CCCC1)c1ccccc1Cl	-	-	MIC	-	100 µg/mL
O=c1nc(SCc2cccc3ccccc23)c2[nH]cnc2[nH]1	H37Ra	-	MIC	-	>12.8 µg/mL
O=C1CN(/N=C/c2ccco2)C(=O)N1	H37Rv	BACTEC	inhibition	12.5 µg/mL	-13%
NC[C@@H]1O[C@H](O[C@H]2[C@@H](O)[C@H](O[C@@H]3[C@@H](O)[C@H](N)C[C@H](N)[C@H]3O[C@H]3O[C@H](CO)[C@@H](O)[C@H](O)[C@H]3N)O[C@@H]2CO)[C@H](N)[C@@H](O)[C@@H]1O	H37Rv	-	Mean MIC	-	2.75 µg/mL
CCOC(=O)c1cc2c(ccc3ccccc32)[nH]1	H37Rv	resazurin	MIC bound	-	>6.25 µg/mL
CN(C)CCCN1c2ccccc2Sc2ccc(Cl)cc21	Isolate B drug-susceptible	-	MIC	-	10 µg/mL
NC1CCN(c2nc3c(cc2F)c(=O)c(C(=O)O)cn3-c2ccc(F)cc2F)C1	ATCC 35826	-	MBC	-	8 µg/mL
NCC[C@H](O)C(=O)N[C@@H]1C[C@H](N)[C@@H](O[C@H]2O[C@H](CN)[C@@H](O)[C@H](O)[C@H]2O)[C@H](O)[C@H]1O[C@H]1O[C@H](CO)[C@@H](O)[C@H](N)[C@H]1O	TN3806 (W1)	-	MIC	-	>256 µg/mL
CCOC(=O)c1ccc2nc(-c3ccc(OC(F)(F)F)cc3)[nH]c2c1	H37Rv	resazurin / fluorescence	EC90	-	>100 µM
Nc1ccccc1/C=C/C(=O)c1cc(Br)ccc1O	-	-	EC50	-	>12.5 µg/mL
Oc1ccc(CCNCCNCc2ccco2)cc1	-	-	MIC	-	50 µM
O=C(N/N=C/c1ccc(O)cc1)c1ccc(Nc2ccccc2)cc1	-	-	MIC	-	>40 µg/mL
CCCCCCCCCCCCCCCC(=O)OC[C@H]1O[C@@](COC(=O)CCCCCCCCCCCCCCC)(O[C@H]2O[C@H](COC(=O)CCCCCCCCCCCCCCC)[C@@H](OC(=O)CCCCCCCCCCCCCCC)[C@H](OC(=O)CCCCCCCCCCCCCCC)[C@H]2OC(=O)CCCCCCCCCCCCCCC)[C@@H](OC(=O)CCCCCCCCCCCCCCC)[C@@H]1OC(=O)CCCCCCCCCCCCCCC	H37Rv	BACTEC	MIC bound	-	>12.5 µg/mL
CO[C@H]1/C=C/O[C@@]2(C)Oc3c(C)c(O)c4c(=O)c(c5oc6cc(N7CCN(C(C)C)CC7)cc(=O)c6nc5c4c3=C2O)NC(=O)/C(C)=C\C=C\[C@H](C)[C@H](O)[C@@H](C)[C@@H](O)[C@@H](C)[C@H](OC(C)=O)[C@@H]1C	2624 (rifampin-sensitive)	-	MBC	-	0.012 µg/mL
CC(CNCC(c1ccccc1)c1ccccc1)NCCC(c1ccccc1)c1ccccc1	-	-	MIC	-	50 µM
COC1C(=O)CCC2(CO2)C1(O)C1(C)OC1CCC(C)C	H37Rv	BACTEC	MIC bound	-	>12.5 µg/mL
NNC(=O)c1ccncc1	38396	-	MIC	-	<0.2 µg/mL
COc1ccc2oc3cc(NCCN(C)C)ccc3c(=O)c2c1	H37Rv	BACTEC	inhibition	12.5 µg/mL	33%
Clc1nc(Sc2ncc[nH]2)c2[nH]cnc2n1	H37Ra	-	MIC	-	>12.8 µg/mL
NNC(=O)c1cccc(Cl)c1	-	-	MIC	-	>200 µg/mL
CC(C)CC(=O)C1=C(O)C(Nc2ccccc2)=CC(=O)C1=Nc1ccccc1	H37Rv	BACTEC	inhibition	128 µg/mL	96%
Cc1ccc(CSc2nc(=O)[nH]c3nc[nH]c23)cc1	H37Rv	-	inhibition	6.25 µg/mL	0%
CC(=O)[C@H]1CC[C@H]2[C@@H]3C=CC4=CC(=O)CCC4(C)[C@@H]3CC[C@]12C	H37Rv	BACTEC	inhibition	12.5 µg/mL	0%
CCc1cc(C(N)=S)ccn1	H37Ra	-	Mean MIC	-	1.02 µg/mL
CO[C@H]1/C=C/O[C@@]2(C)Oc3c(C)c(O)c4c(O)c(c(/C=N/N5CCN(C)CC5)c(O)c4c3C2=O)NC(=O)/C(C)=C\C=C\[C@H](C)[C@H](O)[C@@H](C)[C@@H](O)[C@@H](C)[C@H](OC(C)=O)[C@@H]1C	50194	-	MIC	-	≥2 µg/mL
CCOC(=O)c1ccc2c(c1)nc(-c1ccc([N+](=O)[O-])cc1)n2CCN1CCCC1=O	H37Rv	resazurin / fluorescence	EC50	-	>100 µM
COc1ccc(CCNCCNC(C)CC(C)C)cc1OC	-	-	MIC	-	50 µM
C[N+](C)(C)CC(=O)NC(=O)N/N=C/C(CC#N)CN(Cc1ccccc1)Cc1ccccc1.[Cl-]	H37Rv	BACTEC	inhibition	12.5 µg/mL	0%
CO[C@H]1/C=C/O[C@@]2(C)Oc3c(C)c(O)c4c(O)c(c(/C=N/N5CCN(C)CC5)c(O)c4c3C2=O)NC(=O)/C(C)=C\C=C\[C@H](C)[C@H](O)[C@@H](C)[C@@H](O)[C@@H](C)[C@H](OC(C)=O)[C@@H]1C	PR1370	-	MIC	-	0.04 µg/mL
COc1ccc(/C=C/C(=O)c2ccc(Cl)cc2O)cc1	H37Rv	-	EC50	-	<12.5 µg/mL
CC(C)c1ccc2c(c1)CC[C@H]1[C@](C)(CNCCNC3CCCCC3C)CCC[C@]21C	-	-	MIC	-	25 µM
O=C1C2C3ON(c4ccccc43)C2C(=O)N1c1ccccc1	H37Rv	BACTEC	MIC bound	-	>12.8 µg/mL
NC1CCN(c2c(F)cc3c(=O)c(C(=O)O)cn(C4CC4)c3c2Cl)C1	DRUG-SUS	-	MBC90	-	1 µg/mL
CCSc1nc(Cl)nc2nc[nH]c12	H37Rv	-	inhibition	6.25 µg/mL	44%
CC(=O)Oc1ccc([C@H]2Oc3cc(OC(C)=O)cc(OC(C)=O)c3C(=O)[C@@H]2c2c(OC(C)=O)cc(OC(C)=O)c3c(=O)cc(-c4ccc(OC(C)=O)c(OC(C)=O)c4)oc23)cc1	H37Rv	-	inhibition	12.5 µg/mL	0%
CCCCCCCCCCCNCCN[C@H](CO)CC(C)C	-	-	MIC	-	50 µM
NC(=O)c1cnccn1	Isolate 98-32	-	MIC	-	900 µg/mL
CCOC(=O)c1ccc2nc(-c3ccc(O)c(OC)c3)[nH]c2c1	H37Rv	resazurin / fluorescence	MIC	-	>100 µM
CC1COc2c(N3CCN(C)CC3)c(F)cc3c(=O)c(C(=O)O)cn1c23	ATCC 35826	-	MBC	-	1 µg/mL
CC(=O)NC[C@H]1CN(c2ccc(N3CCN(c4ccc([N+](=O)[O-])s4)CC3)c(F)c2)C(=O)O1	SGPGI	-	MIC	-	0.5 µg/mL
CN[C@@H]1[C@H](O[C@H]2[C@H](O[C@H]3[C@H](O)[C@@H](O)[C@H](N=C(N)N)[C@@H](O)[C@@H]3N=C(N)N)O[C@@H](C)[C@]2(O)C=O)O[C@@H](CO)[C@H](O)[C@H]1O	H37Ra	-	Median MIC	-	0.56 µg/mL
COC1=NC2=CC(=O)c3c(c(OC(C)=O)c(C)c4c3C(=O)[C@@](C)(O/C=C/[C@H](OC)[C@@H](C)[C@@H](OC(C)=O)[C@H](C)[C@H](O)[C@H](C)[C@@H](OC(C)=O)[C@@H](C)/C=C/C=C\1C)O4)C2=O	H37Rv	BACTEC	MIC bound	-	≤12.5 µg/mL
CCOC(=O)c1ccc2nc(-c3ccc(O)cc3O)[nH]c2c1	H37Rv	resazurin / fluorescence	EC50	-	>100 µM
CO[C@H]1/C=C/O[C@@]2(C)Oc3c(C)c(O)c4c(=O)c(c5oc6cc(N7CCN(CC(C)C)CC7)cc(=O)c6nc5c4c3=C2O)NC(=O)/C(C)=C\C=C\[C@H](C)[C@H](O)[C@@H](C)[C@@H](O)[C@@H](C)[C@H](OC(C)=O)[C@@H]1C	3113 (rifampin-sensitive)	-	MBC	-	0.006 µg/mL
CO[C@H]1/C=C/O[C@@]2(C)Oc3c(C)c(O)c4c(O)c(c(/C=N/N5CCN(Cc6ccccc6)CC5)c(O)c4c3C2=O)NC(=O)/C(C)=C\C=C\[C@H](C)[C@H](O)[C@@H](C)[C@@H](O)[C@@H](C)[C@H](OC(C)=O)[C@@H]1C	ETA-R	-	MIC	-	0.05 µg/mL
Cc1ccccc1CSc1nc(=O)[nH]c2nc[nH]c12	H37Rv	-	MIC90	-	>6.25 µg/mL
O=c1[nH]c2cc(Cl)c(Br)cc2o1	H37Rv	BACTEC	inhibition	12.5 µg/mL	76%
CO[C@H]1/C=C/O[C@@]2(C)Oc3c(C)c(O)c4c(O)c(c5c(c4c3C2=O)NC2(CCN(CC(C)C)CC2)N=5)=NC(=O)/C(C)=C\C=C\[C@H](C)[C@H](O)[C@@H](C)[C@@H](O)[C@@H](C)[C@H](OC(C)=O)[C@@H]1C	Strain 136 (H526P)	-	MIC	-	16 µg/mL
CCOC(=O)c1ccc2nc(-c3ccccc3)[nH]c2c1	H37Rv	resazurin / fluorescence	EC90	-	>100 µM
COc1cc(O)c(Cc2ccccc2O)c(O)c1C(=O)CCc1ccccc1	H37Rv	BACTEC	MIC	-	≥12.5 µg/mL
COc1cccc(CSc2ccccn2)c1	H37Ra	-	MIC	-	>12.8 µg/mL
CCOc1ccccc1CNCCNCCc1cc(OC)ccc1OC	-	-	MIC	-	50 µM
Cn1cc(NC(=O)Nc2cc(C(=O)Nc3cc(C(=O)Nc4ccc5cc(S(=O)(=O)O)cc(S(=O)(=O)O)c5c4)n(C)n3)n(C)c2)cc1C(=O)Nc1cc(C(=O)Nc2ccc3cc(S(=O)(=O)O)cc(S(=O)(=O)O)c3c2)n(C)n1	H37Rv	BACTEC	inhibition	12.5 µg/mL	0%
O=C(NNS(=O)(=O)c1ccc(Cl)cc1)c1ccccc1	-	-	MIC	-	>200 µg/mL
C[C@H]1[C@H](NC(=O)/C(=N\OC(C)(C)C(=O)O)c2csc(N)n2)C(=O)N1S(=O)(=O)O	H37Rv	BACTEC	inhibition	12.5 µg/mL	-2%
Clc1cccc(Sc2nc(Cl)nc3nc[nH]c23)c1	H37Ra	-	MIC	-	>12.8 µg/mL
CC1(O)Nc2nc3c(ncn3[C@@H]3O[C@H](CO)[C@@H](O)[C@H]3O)c(=O)n2C1O	H37Rv	resazurin	inhibition	6.25 µg/mL	11%
Clc1nc(Sc2ccc3ccccc3n2)c2[nH]cnc2n1.O	H37Rv	-	MIC90	-	>6.25 µg/mL
N#CC(C(=O)NN)C1c2ccccc2Oc2ccccc21	H37Rv	BACTEC	inhibition	12.5 µg/mL	14%
O=C(/C=C/c1ccc([O-])c(C[O-])c1)c1cccc(O)c1	H37Rv	-	EC50	-	<12.5 µg/mL
NC(=O)C(=O)N/N=C/c1ccc2c(c1)CCC2	H37Rv	BACTEC	MIC bound	-	>12.5 µg/mL
CC1COc2c(N3CCN(C)CC3)c(F)cc3c(=O)c(C(=O)O)cn1c23	900145	-	MIC	-	0.5 µg/mL

A second listing of 5 rows from above:

{"compound": "CO[C@H]1/C=C/O[C@@]2(C)Oc3c(C)c(O)c4c(O)c(c5c(c4c3C2=O)NC2(CCN(CC(C)C)CC2)N=5)=NC(=O)/C(C)=C\\C=C\\[C@H](C)[C@H](O)[C@@H](C)[C@@H](O)[C@@H](C)[C@H](OC(C)=O)[C@@H]1C", "strain or isolate": "Strain 136 (H526P)", "read-out": "MIC", "value": "16 µg/mL"}
{"compound": "C[C@@H]1CN(c2c(F)c(N)c3c(=O)c(C(=O)O)cn(C4CC4)c3c2F)C[C@H](C)N1", "strain or isolate": "ATCC35838", "read-out": "MBC", "value": "0.6 µg/mL"}
{"compound": "NC(=O)C(=O)N/N=C/c1ccc2c(c1)CCC2", "strain or isolate": "H37Rv", "method": "BACTEC", "read-out": "MIC bound", "value": ">12.5 µg/mL"}
{"compound": "Clc1cccc(Sc2nc(Cl)nc3nc[nH]c23)c1", "strain or isolate": "H37Ra", "read-out": "MIC", "value": ">12.8 µg/mL"}
{"compound": "O=C(/C=C/c1ccc([O-])c(C[O-])c1)c1cccc(O)c1", "strain or isolate": "H37Rv", "read-out": "EC50", "value": "<12.5 µg/mL"}

ECn is the concentration giving n% inhibition of infection, replication or growth. MIC bound comes from a single tested concentration. A number after MIC or MFC names an inhibition level or a share of isolates. An empty or dashed field is not shown. Rows are shuffled and stem from different studies.